From ChEMBL document CHEMBL4819135, “Design, synthesis and anti-HIV evaluation of novel 5-substituted diarylpyrimidine derivatives as potent HIV-1 NNRTIs” (Bioorg Med Chem, 2021) come the findings set out here.

For the experiment, the target named is Human immunodeficiency virus type 1 reverse transcriptase (Human immunodeficiency virus 1, UniProt Q72547). As to the kind of experiment: Inhibition of wild type HIV-1 reverse transcriptase assessed as reduction in biotin-dUTP incorporation in presence of template-primer incubated for 60 mins followed by transferring to streptavidin-coated plate and further incubation for 60 mins by ELISA. On the technique in general: In an ELISA, binding on a coated surface is turned into a signal by an enzyme label.

The term IC50 denotes the concentration at which inhibition is half-maximal. With `Cc1cc(C#N)cc(C)c1Oc1nc(Nc2ccc(C#N)cc2)nc(N)c1Br` [ETRAVIRINE], the IC50 turned out to be 0.059 µM.
